Results from US20210386367A1, “DEVICES AND SYSTEMS FOR GASTROINTESTINAL MICROBIOME DETECTION AND MANIPULATION” (Progenity, Inc., priority 2018, published 2021).

Tests used:
Bacteroides spp. = test: Spontaneous mutation frequency assay; format: cell-based; conditions: B. vulgatus ATCC 8482
[1] = test system: E. coli (ATCC 25922, ATCC 35218, MMX 1312); test: Spontaneous mutation frequency assay; format: cell-based, Escherichia coli; conditions: E. coli MMX 1312
Streptococcus spp. = test: Spontaneous mutation frequency assay; format: cell-based
[2] = test system: E. coli spontaneous mutants; test: Broth microdilution MIC of spontaneous mutants; format: cell-based, Escherichia coli; conditions: colonies selected at 4× and 8× the MIC
[3] = test system: E. coli, Streptococcus spp., and Bacteroides spp. isolates; format: cell-based; conditions: SIBO pathogens in vitro

CO/N=C(\C(=O)N[C@@H]1C(=O)N2C(C(=O)O)=C(CSc3nc(=O)c(=O)[nH]n3C)CS[C@H]12)c1csc(N)n1 [ceftriaxone]
colonies on selection plates (Bacteroides spp.): colonies were only observed at 4× the MIC | colonies on selection plates [1]: too numerous to count | colonies on selection plates (Streptococcus spp.): No E. coli, Streptococcus spp., or B. vulgatus colonies were selected | broth microdilution MIC of selected colonies relative to parent strain [2]: consistent with that of the parent strain | propensity for spontaneous resistance [3]: little propensity for resistance to develop spontaneously
